Literature values in PMC9986244, “Connection between MHC class II binding and aggregation propensity: The antigenic peptide 10 of Paracoccidioides brasiliensis as a benchmark study” (Computational and Structural Biotechnology Journal, 2023).

Target: DRB1*01:01 allele (Homo sapiens, UniProt P01903+P01911, A100R/D57E/F55L/F60I/F76Y/I96L/L162R/M171V/P40L/Q125E/R42F/V115G/Y59C)
Details: cited from earlier work

In the case of PKYVKQNTLKLAT [Influenza peptide], the “Binding against the DRB1*01:01 allele” value is given as “good binder”.
